Key:
[1] = tested on: Mycobacterium tuberculosis H37Rv CNCTC My 331/88 (ATCC 27294); test: Antimycobacterial microdilution MABA, M. tuberculosis; type: cell-based; conditions: IC50 (HepG2)/MIC (Mtb) in molar concentrations rounded to units
[2] = tested on: Staphylococcus aureus CCM 4516/08; test: Antibacterial microdilution broth, SA; type: cell-based; conditions: IC50 (HepG2)/MIC (S. aureus CCM 4516/08, 24 h) in molar concentrations rounded to units

Structure (SMILES) | Mtb SI [1] | SA SI [2]
O=C(Nc1cnc(Cl)cn1)c1ccccc1O [Compound 2b] | 3 | 10
CC(=O)Oc1ccc(C(=O)Nc2cnc(Cl)cn2)cc1 [Compound 2d-Ac] | – | >510
O=C(Nc1cncc(Cl)n1)c1cccc(C(F)(F)F)c1 [Compound 3n, N-(6-chloropyrazin-2-yl)-3-(trifluoromethyl)benzamide] | >3 | –
Cc1ccc(C(=O)Nc2cnc(Cl)cn2)cc1 [Compound 2h] | > 10 | –

From article PMC6225228, “Design, Synthesis and Evaluation of N-pyrazinylbenzamides as Potential Antimycobacterial Agents” (Molecules : A Journal of Synthetic Chemistry and Natural …, 2018)
